Source: PMC8215210

What follows are sequences tested against T1, His-OpaR (Vibrio parahaemolyticus RIMD2210633) (UniProt Q79YV4) (assay: DNase I footprinting). Settings: pH and temperature not given (as in Zhang et al., 2012, 2017); footprinting with 0, 6, 9, 12 pmol His-OpaR; recombinant protein; residues 1-204; protein details: 6xHis; label: labeled coding or noncoding strand; probe letters rebuilt from the primers and the genome.
T1 sequence: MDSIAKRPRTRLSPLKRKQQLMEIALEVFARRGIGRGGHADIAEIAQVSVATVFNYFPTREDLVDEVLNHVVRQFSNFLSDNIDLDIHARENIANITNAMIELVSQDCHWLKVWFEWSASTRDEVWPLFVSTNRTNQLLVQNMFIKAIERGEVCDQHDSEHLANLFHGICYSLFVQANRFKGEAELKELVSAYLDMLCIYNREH
“TAAATACTATTAGGTAACGCGTGCATTATAAAAGATATCGCGCATAGCTGTTATAAGAATCCTCAATTCATTTCAATTAATGAGTATTCAGTCAATTAATAGAGCGATTTACTTCATAAAACCATTTTATTTTTATGGACTTAGCTCAAGAAATGACAGCATTATTAACTAATTTTAATAATTTGAGGAATGCATCAATAACTATTTCATATAAACACGATTTACTGTTGACTAAGTTTTATAAATATCGATGATCAGCAAGTTAAACTGAACGAAGTTTTATTCATTTGAAAGCGCAAGAACATGACTGTCTACTATTTTAAATTAGCATTTGTATCTTAATAATGCGCATGATTACTTCATTTCCCTG (double strand) [scrG footprint probe]”: binds.

The sequences below were run against T1, His-OpaR (Vibrio parahaemolyticus RIMD2210633) (assay: EMSA). Settings: pH and temperature not given (as in Zhang et al., 2012, 2017); EMSA on 6% polyacrylamide gel; footprinting with 0, 6, 9, 12 pmol His-OpaR; recombinant protein; residues 1-204; protein details: 6xHis; probe letters rebuilt from the primers and the genome.
“GTCGGCTGCGATTAGTCTGAATAGAATCCTTGTCGCTCATTTTTTTCGATCCTTGTCGGAAATTAGCCATATTATTAATTTTTAAACGCGTAACTATCTGTTACTAAAACATTATTACCTATTCAAACCAGACTTTAATTTTTTACTCTGCCATTAAGTGACTTTAGTTCCACTTTTTTAGCTTATTTGATGACATAAGCAACAGTTTCGCCTCCAACCAATAAACAACTGAATACATATTAAAATATTCATTAAATTGACTATTTTTATGATAAACGCTTAATAATAGTTTTATCTATAAACAAACAGTGAGCTTTGTTATAAATTCATTAAAAATTTAACTTTGTATTAATTAGAAAATTCAGCGTCATATTTGTTCAACTGCGACTATTCTTTTTATAACCAAGTAATCTCAATATGTTAAGTTTCATAAAATGGCTTGATGTTTAAATGAACAGTTAATTTTTAGACCATATATAGCGAGATCTAAAGTAGTTCAAACAAATGTACGGTCTAACTCTTAGCTGCGAGAACAAACCACTTGGATATACGCTC (double strand) [scrA EMSA fragment]”: binds. “CAGGGAAATGAAGTAATCATGCGCATTATTAAGATACAAATGCTAATTTAAAATAGTAGACAGTCATGTTCTTGCGCTTTCAAATGAATAAAACTTCGTTCAGTTTAACTTGCTGATCATCGATATTTATAAAACTTAGTCAACAGTAAATCGTGTTTATATGAAATAGTTATTGATGCATTCCTCAAATTATTAAAATTAGTTAATAATGCTGTCATTTCTTGAGCTAAGTCCATAAAAATAAAATGGTTTTATGAAGTAAATCGCTCTATTAATTGACTGAATACTCATTAATTGAAATGAATTGAGGATTCTTATAACAGCTATGCGCGATATCTTTTATAATGCACGCGTTACCTAATAGTATTTAATAAATGTCACCATATGCAGTACAACCCAGAAGACTCAATTAAAATTGCAATCGCAGATGTTGCTGTCGGCATGTTTGTTACCGCGATAGAGCATAACAAACGAGTCAATTTAGCCAATGCTGGTCGAGTTTCGAGCGCAGAAGGCATTAAAAAGCTTCGCGCAAGTGGCGTGAAATTCGTTTGGGTTGATCAATCACTTTCTGCTCAGCAGTGCGTATTCAAACCCGTCGAAGAACCTATCGATATCGAAGTAGGGGATAAAACGCTTTCCGTATCAAGCAAAGTACAACGTGCGTATCGCTCGCGAGAAGTCCAACACAAGCGTGCTA (double strand) [scrG EMSA fragment]”: binds. “AGTATCACGATGTGTCAGCCTGAGTTGGTCAAGTTGACAACTCAGCTGATGAAGCTGCGACTGAATATCGGATTCCAAGATTCCCATGAAACGACTACGGTTAAGTCCATGTACTACTGACAATTAACTGATAATAACAAAAAACTTTATAGCGTCATTAGTTATTACGCTTAACCGATGGTTAATTATCCATTTTTTAATATTTTCTTGATGTCGTCCTCATTCTTGTAAGAGGAGTGGATCTTGATCAGGCCTTGGTTGATGGCGTGTTGGCAAGCGGTTCTTATGTTACCGGTTGCAAAGCTCGCTGCTGGCGCGTTGTCAATGGCTTTCAAAAATACCCAATGACTTTGTTTATCTTTGAGGCTAACTTCGCGTGCAATGTGCGTCGCAAGTAGCAGTAAATCGAGCAGTTCTTCATCATTGATAGCGGTGTAAGCACGAGGCAAGAATGGGTAGTCGCTGATGCCCATACGAATGATGCGATTGACGTTATGTTGAGTCGCAAATTCGTCTACCCACGCTTGGAATTTTTCAAACATGACTTCGGCAGAGGCGTCGCGGTCTGCGTTAGGTTCGATGTAGAGTAAGTTTGCATCCGAGAAGTGGTACAAACGTGCAGGTTTTTCGATGCGCTCTGCTAGGTATTCTCC (double strand) [VP0699 EMSA fragment]”: binds. “CTCACACAACACTTTCTGGTACGCGCCGCAGATGAGCTTGGAGTGGAAACCAAAACCTTGCACCCGTCGACAGTCGAAATTCTCAATCGACTCAATTGGCCGGGCAACGTACGTCAGCTAGAAAACATTTGTCGCTGGTTAACCGTGATGGCGAGTGGCAGTGAAGTATTACCGAACGATTTGCCTTCAGAGCTTTTGGAAGAGAAGAAGACCGTTTCGGATTCAACCAAAGGTAGCTGGCAAGAACAATTGGCGGACTGGGCACGTCAATCGCTCGCTGCGGGGGATAAAGAACTACTTTCTTTCGCATTACCAGAATTTGAGCGCATTTTATTAGAAGCTGCACTGGAGCACACTAAAGGTCACAAGCAAGATGCCGCTAAAGTATTAGGCTGGGGACGCAATACGCTAACCAGAAAGTTAAAAGAGTTGTACTGACCGTCACTTAAGCAGTGAGTTAACAATGAGAGTGCTTAGCGCTCGATATTAACAGAAATGTCAGTACAATTAAGGTGAACCATCCCTAATGTGACTAGGCAATGTCTACTGCAAAGACTCAAATTACACTACGTACTGCTGTACTCATCCCTTTTGTGATGATTTTCTTACTGGCTATCGGTGTGATTGTCTGAATTCGCGC (double strand) [VP0117 EMSA fragment]”: binds. “CTGACTTACATCGTGGACCCGTTTGGAAAAAGCTCGCATGTACCCTACTACTGCCGTAACACTATTTTCACCACGATGAGTGGCGTCGTTATTTTTACTTTAGGCTTAGTAATTTACGTTTCTTTTTGATGCTTTTCTAGGCACAAAATGACTTTAGAATGGATTAATGCGAAAGCAATTAAAAAAGTGTGAGTAACGGCTGCAAACTATTGATTTCAATGTCAGGTAACGTACGTGTTCTTGAATGATTAATGACATTTTTATTCATATCATTAAACCAACATGCGGCAAAACCCGCTAACTTTGCACCATATACATCCGTCGTGAGGTGGTCACCAACATGCAAAATGTTTTCGGCAGGTAAATCGAGGAACTGCTGCGCTTTGACAAACAAATCGGCAGCAGGCTTGGCGAGACCGTCAGGGCCCGCTTTTAATACGCATTGGAAGTATGGCGTCAAACCGATTTTATCTAAGTCGACATTACCATTGGTGATCGCCACCAGAGGAATGCGTTCTCCCAACTCCGCCAATACATCGAGACTTTGCTGTGGCACGTCAAACTGACTGCGCCATTCCAACGCCAGTTGCACGCCCTCTTCCGCTGCGACTTGAGCTTGCGCTTCATCGTAGCCAACGGATAGAAA (double strand) [VP2979 EMSA fragment]”: binds. “GTCTTGCTGATTCTGATGCAACAGCTCAATAACACCAACACACAAAGCAACAAAAGCGAAAAAGAACAGTGCAAAATAGCACTGCTTTCTGGGTGAATAACGCATTAGCTCCCCACTAGCTCGTCCGTTACTACGAGAATTATTCTTTTATTGTTAAAATTCTTATTATCTACAAGAATAACCAATAGCCTTTGCAAAGGTAATAATTATCTGAAATTTTTATGGTTTAAATAGGCAACGGGATGCAAGGACAAGGCGATTTATTTGAAAGTACGGATTGGCAAGAGGTACGCCAAGGTAAGCTCTTTTATCAGCCAAACTTTCTTTCTCAGCAAGAAGCGGATACGTACTTTTCAACGCTTATGAGTACCTTGCCTTGGCAACAAGAACGCATAACCATTTTCGGGAAATCGGTACTTCAACCTCGTTTGCAGACTTGGCATGGCGATGCGCCTTACACCTATTCGGGTTTAACCATGGCACCTCACCCTTGGACGTCTGAGCTGTCATCACTCAAGGCTCGCTGTGAAAGCCTTGCCAACACCCCGTTCAACTCTGTATTGGCGAATCTGTATCGCGACGGTCAGGACTCGATGGGATGGCACCAAGACAATGAACCAGAG (double strand) [VPA0198 EMSA fragment]”: binds. “TCAGGTACGCTTGCTTCACCACGCGCATGGTGGATGCTCAAAGCGATGGGACACGAGAACGTCAAAGTACTTAATGGTGGACTTCCAGCTTGGATAGAAGCGGGATTGCCCGTGGTAGATTCGCTAGCAAAACCTGAACAATTAGGAAATTTTGCGGGAAAATTAAATAAAAATGCATTTTTGGACGCAAATGCAGTATTAGAGTACTCAAACAATTGCAGTGCGCATATTGTTGATGCTCGCTCACGAGCGCGCTTTTTTGGTGAAGTGCCTGAGCCAAGAGAAGGATTGCGCAGTGGCCATATTCCAAACTCGTTGTGCCTGCCTTTTCAAGAACTGCTGGATAACGGTTACATCAAACCGAACTCAGAATTGAAACAAGCATTTAGCGAACTGTCGCTATATAATGACAATTCAATCATTTTCAGCTGTGGCTCAGGTGTGACTGCCTGTATTTTATTGTTGGCAGCTCATCAACTTGGCTTACGCAACTTATCTGTTTATGACGGTTCATGGACAGAATGGGGTGCAGACTGCTCACTGCCAATTACGCGTTAAGCTAGGGGTTATCAAAACAATATGGTCGGATTAAAGAAGAACATTTGGACTCTTTACATGATGCTGCTCACCGTCAGTATCGTGACATTTTCGCTATTCGGCTATTACCACTACCAAGCAACG (double strand) [VPA1176 EMSA fragment]”: binds.
